US10071110B2, “Phosphonate compounds” (priority 1999, dated 2018)
pEC50: −log10 of the molar value.

Test system: HIV-1
Conditions: read-out: EC50, in HIV-1 plaque reduction assay; preliminary; HIV-1LA1 infected HT4-6C cells, 3 days (Table 5)

## hexadecyloxypropyl-adefovir [HDP-ADV]
  pEC50: 10.00
